The test system of data set [1] is DENV2. The settings on record: Table 3, CC50/EC50.
Data set [2] deals with ZIKV (Puerto Rico strain PRVABC59). The experiment in a line: Viral titer reduction assay in A549 cells, ZIKV. The format is cell-based, Zika virus.
Data set [3] has as its system JEV. In kind it is cell-based, Japanese encephalitis virus. The settings on record: CC50/EC50.
The subject of data set [4] is YFV. The format is cell-based, yellow fever virus. The settings on record: CC50/EC50.
The test system of data set [5] is WNV. In kind it is cell-based, West Nile virus.

Read-outs that look alike come from different tables or passages of the source.

Turning to “3-[10,15,20-tris(3-hydroxyphenyl)-2,3,22,24-tetrahydroporphyrin-5-yl]phenol [Temoporfin]”, the TI is recorded as 2,035 in data set [1]; 1,850 in data set [2] (ZIKV*, in dark, CC50/EC50); 1,696 in data set [2] (ZIKV, CC50/EC50); 3,700 in data set [3] (JEV*, in dark); 6,783 in data set [4] (YFV*, in dark); 4,070 in data set [5] (WNV*, in dark, CC50/EC50).
With `CN(C)c1ccc2nc3ccc(=[N+](C)C)cc-3sc2c1` [Methylene blue, [7-(dimethylamino)phenothiazin-3-ylidene]-dimethylazanium;chloride], the TI came out at 6.8 in data set [2] and 19 in data set [5].
Take `O=C(Nc1ccc([N+](=O)[O-])cc1Cl)c1cc(Cl)ccc1O` [Niclosamide, 5-chloro-N-(2-chloro-4-nitrophenyl)-2-hydroxybenzamide]: the TI was found to be 9 in data set [1]; 10 in data set [2] (ZIKV, CC50/EC50); 3.8 in data set [3] (JEV); 5.7 in data set [4] (YFV); 9 in data set [5] (WNV, CC50/EC50).

(Values after US20230102223A1, “PHARMACEUTICAL COMPOSITIONS WITH ANTIFLAVIVIRAL ACTIVITY” (HEALTH RESEARCH, INC., priority 2016, published 2023).)
